Measured values from several laboratories, pooled; numbers as filed in NIAID ChemDB.

Common to all: whole-cell or culture tests; species: Streptococcus pneumoniae

MIC50, MIC90 and the like: level of inhibition, or share of isolates inhibited. Neighbouring rows are from separate reports.

{"compound": "CC[C@H]1OC(=O)[C@H](C)C(=O)[C@H](C)[C@@H](O[C@@H]2O[C@H](C)C[C@H](N(C)C)[C@H]2O)[C@](C)(OC)C[C@@H](C)C(=O)[C@H](C)[C@H]2N(CCCCn3cnc(-c4cccnc4)c3)C(=O)O[C@]12C", "read-out": "MIC", "strain or isolate": "700906 (erythromycin A-resistant)", "result": "0.25 µg/mL"}
{"compound": "CO/N=C1\\CN(c2nc3c(cc2F)c(=O)c(C(=O)O)cn3C2CC2)CC1CN", "read-out": "MIC90", "strain or isolate": "21 isolates ciprofloxacin-resistant", "result": "0.5 µg/mL"}
{"compound": "CC[C@H]1OC(=O)[C@H](C)C(=O)[C@H](C)[C@@H](O[C@@H]2O[C@H](C)C[C@H](N(C)C)[C@H]2O)[C@@]2(C)C[C@@H](C)C(=NC(C)=O)[C@H](C)[C@@H](OC/C(=N\\OCc3ccc(-c4ncccn4)s3)CO2)[C@]1(C)O", "read-out": "MIC", "strain or isolate": "49619 (erythromycin A-susceptible)", "result": "<0.06 µg/mL"}
{"compound": "NC1CCN(c2ccc3c(=O)c(C(=O)O)cn(C4CC4)c3c2Cl)C1", "read-out": "MIC", "strain or isolate": "D-1687", "result": "2 µg/mL"}
{"compound": "CC[C@H]1OC(=O)[C@@](C)(F)C(=O)[C@H](C)[C@@H](O[C@@H]2O[C@H](C)C[C@H](N(C)C)[C@H]2O)[C@@]2(C)C[C@@H](C)C(=NC(C)=O)[C@H](C)[C@@H](OC/C(=N\\OCc3ccc(C(N)=O)cc3)CO2)[C@]1(C)O", "read-out": "MIC", "strain or isolate": "49619 (erythromycin A-susceptible)", "result": "<0.06 µg/mL"}
{"compound": "C=C1COC2[C@@H](C)C(=NC(C)=O)[C@H](C)C[C@@](C)(OC1)[C@H](O[C@@H]1O[C@H](C)C[C@H](N(C)C)[C@H]1O)[C@@H](C)C(=O)[C@@H](C)C(=O)O[C@H](CC)[C@@]2(C)O", "read-out": "MIC", "strain or isolate": "700906 (erythromycin-resistant-ERM)", "result": ">64 µg/mL"}
{"compound": "CC[C@H]1OC(=O)[C@@](C)(F)C(=O)[C@H](C)[C@@H](O[C@@H]2O[C@H](C)C[C@H](N(C)C)[C@H]2O)[C@@]2(C)C[C@@H](C)C(=NC(C)=O)[C@H](C)[C@@H](OC/C(=N\\OCc3ccc4nc(N)sc4c3)CO2)[C@]1(C)O", "read-out": "MIC", "strain or isolate": "7701 (erythromycin A-resistant)", "result": "0.13 µg/mL"}
{"compound": "CC[C@H]1OC(=O)[C@H](C)C(=O)[C@H](C)[C@@H](O[C@@H]2O[C@H](C)C[C@H](N(C)C)[C@H]2O)[C@@]2(C)C[C@@H](C)C(=NC(C)=O)[C@H](C)C(OC/C(=C\\C=C\\c3ccc(OC)cc3)CO2)[C@]1(C)O", "read-out": "MIC", "strain or isolate": "700906 (erythromycin-resistant-ERM)", "result": "1 µg/mL"}
{"compound": "CC[C@H]1OC(=O)[C@H](C)C(=O)[C@H](C)[C@@H](O[C@@H]2O[C@H](C)C[C@H](N(C)C)[C@H]2O)[C@@]2(C)C[C@@H](C)C(=NC(C)=O)[C@H](C)C(OC/C=C/CO2)[C@]1(C)O", "read-out": "MIC", "strain or isolate": "49619 (erythromycin-susceptible)", "result": "0.25 µg/mL"}
{"compound": "CN1CCN(c2cc3c(cc2F)c(=O)c(C(=O)O)cn3C2CC2)CC1", "read-out": "MIC", "strain or isolate": "R6", "result": "1 µg/mL"}
{"compound": "CC[C@H]1OC(=O)[C@H](C)C(=O)[C@H](C)[C@@H](O[C@@H]2O[C@H](C)C[C@H](N(C)C)[C@H]2O)[C@@]2(C)C[C@@H](C)C(=NC(C)=O)[C@H](C)[C@@H](OC/C(=N\\OCCCc3ccccc3)CO2)[C@]1(C)O", "read-out": "MIC", "strain or isolate": "7701 (erythromycin-resistant-MEF)", "result": "0.25 µg/mL"}
{"compound": "CC[C@H]1OC(=O)[C@H](C)C(=O)[C@H](C)[C@@H](O[C@@H]2O[C@H](C)C[C@H](N(C)C)[C@H]2O)[C@@]2(C)C[C@@H](C)/C(=N\\C(=O)OC)[C@H](C)C(OC/C(=C\\C=C\\c3ccccc3)CO2)[C@]1(C)O", "read-out": "MIC", "strain or isolate": "49619 (erythromycin-susceptible)", "result": "<0.06 µg/mL"}
{"compound": "CC[C@H]1OC(=O)[C@H](C)C(=O)[C@H](C)[C@@H](O[C@@H]2O[C@H](C)C[C@H](N(C)C)[C@H]2O)[C@@]2(C)C[C@@H](C)C(=NC(C)=O)[C@H](C)[C@@H](OC/C(=N\\OCc3ccc(C(N)=O)s3)CO2)[C@]1(C)O", "read-out": "MIC", "strain or isolate": "700906 (erythromycin A-resistant)", "result": "0.25 µg/mL"}
{"compound": "CC[C@H]1OC(=O)[C@H](C)C(=O)[C@H](C)[C@@H](O[C@@H]2O[C@H](C)C[C@H](N(C)C)[C@H]2O)[C@@]2(C)C[C@@H](C)C(=NC(C)=O)[C@H](C)[C@@H](OC/C(=N\\OCC#Cc3ncccn3)CO2)[C@]1(C)O", "read-out": "MIC", "strain or isolate": "700906 (erythromycin-resistant-ERM)", "result": "0.5 µg/mL"}
{"compound": "CC[C@H]1OC(=O)[C@H](C)C(=O)[C@H](C)[C@@H](O[C@@H]2O[C@H](C)C[C@H](N(C)C)[C@H]2O)[C@@]2(C)C[C@@H](C)C(=NC(C)=O)[C@H](C)C(OC/C(=C\\C#Cc3ccccc3)CO2)[C@]1(C)O", "read-out": "MIC", "strain or isolate": "49619 (erythromycin-susceptible)", "result": "<0.06 µg/mL"}
{"compound": "CC[C@H]1OC(=O)[C@@](C)(F)C(=O)[C@H](C)[C@@H](O[C@@H]2O[C@H](C)C[C@H](N(C)C)[C@H]2O)[C@@]2(C)C[C@@H](C)C(=NC(C)=O)[C@H](C)[C@@H](OC/C(=N\\OCc3ccc(N)nc3)CO2)[C@]1(C)O", "read-out": "MIC", "strain or isolate": "700906 (erythromycin A-resistant)", "result": "<0.06 µg/mL"}
{"compound": "COc1c(N2CCNC(C)C2)c(F)cc2c(=O)c(C(=O)O)cn(C3CC3)c12", "read-out": "MIC", "strain or isolate": "D-1687", "result": "2 µg/mL"}
{"compound": "CC[C@H]1OC(=O)[C@H](C)C(=O)[C@H](C)[C@@H](O[C@@H]2O[C@H](C)C[C@H](N(C)C)[C@H]2O)[C@@]2(C)C[C@@H](C)C(=NC(C)=O)[C@H](C)[C@@H](OC/C(=N\\Oc3ccc(-c4cnccn4)s3)CO2)[C@]1(C)O", "read-out": "MIC", "strain or isolate": "49619 (erythromycin-susceptible)", "result": "<0.06 µg/mL"}
{"compound": "CC[C@H]1OC(=O)[C@H](C)C(=O)[C@H](C)[C@@H](O[C@@H]2O[C@H](C)C[C@H](N(C)C)[C@H]2O)[C@@]2(C)C[C@@H](C)C(=NC(C)=O)[C@H](C)[C@@H](OC/C(=N\\OCc3ccc(-c4cccc(N)n4)s3)CO2)[C@]1(C)O", "read-out": "MIC", "strain or isolate": "49619 (erythromycin A-susceptible)", "result": "<0.06 µg/mL"}
{"compound": "C[C@H]1NCc2cc(-c3c(F)cc4c(=O)c(C(=O)O)cn(C5CC5)c4c3OC(F)F)ccc21", "read-out": "MIC", "strain or isolate": "D-1687", "result": "0.06 µg/mL"}
{"compound": "CC[C@H]1OC(=O)[C@@](C)(F)C(=O)[C@H](C)[C@@H](O[C@@H]2O[C@H](C)C[C@H](N(C)C)[C@H]2O)[C@@]2(C)C[C@@H](C)C(=NC(C)=O)[C@H](C)[C@@H](OC/C(=N\\OCc3ccc(-c4ncccn4)s3)CO2)[C@]1(C)O", "read-out": "MIC", "strain or isolate": "7701 (erythromycin A-resistant)", "result": "<0.06 µg/mL"}
{"compound": "CC[C@H]1OC(=O)[C@H](C)C(=O)[C@H](C)[C@@H](O[C@@H]2O[C@H](C)C[C@H](N(C)C)[C@H]2O)[C@@]2(C)C[C@@H](C)C(=NC(C)=O)[C@H](C)[C@@H](OC/C(=N\\OCc3ccc4nc(N)sc4c3)CO2)[C@]1(C)O", "read-out": "MIC", "strain or isolate": "49619 (erythromycin-susceptible)", "result": "<0.06 µg/mL"}
{"compound": "CC[C@H]1OC(=O)[C@H](C)C(=O)[C@H](C)[C@@H](O[C@@H]2O[C@H](C)C[C@H](N(C)C)[C@H]2O)[C@@]2(C)C[C@@H](C)C(=NC(=O)CO)[C@H](C)C(OC/C(=C\\C=C\\c3ccccc3)CO2)[C@]1(C)O", "read-out": "MIC", "strain or isolate": "700906 (erythromycin-resistant-ERM)", "result": "8 µg/mL"}
{"compound": "CC[C@H]1OC(=O)[C@H](C)C(=O)[C@H](C)[C@@H](O[C@@H]2O[C@H](C)C[C@H](N(C)C)[C@H]2O)[C@@]2(C)C[C@@H](C)C(=NC(C)=O)[C@H](C)C(OC/C(=N/OCc3ccccc3)CO2)[C@]1(C)O", "read-out": "MIC", "strain or isolate": "7701 (erythromycin-resistant-MEF)", "result": "1 µg/mL"}
{"compound": "NC1CCN(c2c(F)cc3c(=O)c(C(=O)O)cn(C4CC4)c3c2Cl)C1", "read-out": "MIC", "strain or isolate": "R6", "result": "0.06 µg/mL"}

The first 3 rows once more:

| compound | read-out | strain or isolate | result |
|---|---|---|---|
| CC[C@H]1OC(=O)[C@H](C)C(=O)[C@H](C)[C@@H](O[C@@H]2O[C@H](C)C[C@H](N(C)C)[C@H]2O)[C@](C)(OC)C[C@@H](C)C(=O)[C@H](C)[C@H]2N(CCCCn3cnc(-c4cccnc4)c3)C(=O)O[C@]12C | MIC | 700906 (erythromycin A-resistant) | 0.25 µg/mL |
| CO/N=C1\CN(c2nc3c(cc2F)c(=O)c(C(=O)O)cn3C2CC2)CC1CN | MIC90 | 21 isolates ciprofloxacin-resistant | 0.5 µg/mL |
| CC[C@H]1OC(=O)[C@H](C)C(=O)[C@H](C)[C@@H](O[C@@H]2O[C@H](C)C[C@H](N(C)C)[C@H]2O)[C@@]2(C)C[C@@H](C)C(=NC(C)=O)[C@H](C)[C@@H](OC/C(=N\OCc3ccc(-c4ncccn4)s3)CO2)[C@]1(C)O | MIC | 49619 (erythromycin A-susceptible) | <0.06 µg/mL |